Target: T1, His-OpaR (Vibrio parahaemolyticus RIMD 2210633) (UniProt Q79YV4)
T1 sequence: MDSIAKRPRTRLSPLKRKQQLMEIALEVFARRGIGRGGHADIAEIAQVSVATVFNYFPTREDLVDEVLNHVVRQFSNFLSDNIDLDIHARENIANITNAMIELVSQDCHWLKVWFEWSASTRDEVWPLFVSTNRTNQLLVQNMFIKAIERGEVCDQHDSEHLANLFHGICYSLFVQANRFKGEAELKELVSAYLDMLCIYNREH
Assay: EMSA
Details: poly(dI-dC), 1 mM MgCl2; 10 mM Tris-HCl pH 7.5, 50 mM NaCl, 1 mM MgCl2, 0.5 mM EDTA, 0.5 mM DTT, 0.05 mg/ml poly(dI-dC), room temperature, 30 min; recombinant protein; residues 1-204; protein details: 6xHis (pET28a, BamHI/HindIII); label: 5' 32P; probe letters rebuilt from the primers and the genome

“TATTACCTTACTTGCCTCTCGGAAAAGAAGTCCTAACGGAAATAACTAAGTTAAAACTCAACAAAGTATCTAACCGTATCCGAAAACATTATTCGGCAGGGTTGTATTTTGATGAACAACTAATTAATGACATTGTAGACAATAGTAATGAGTCAGGAAGTGGTGCTCGTGTAGTTCAAACCACCATTGAAAATAATTTACTTCCTAAAATTTCTCATGAAATATTGAATGCAATTCTTAATGGTAAGACGTTCGATGAAATTAATGTTAGAGGTTCAATTAAAGAACTAGAAGTCTCACTTATTTAACAAGTTTAACTCTGTAAATAATAATTGAGAGTTGCTTCATAATAACTATTATTAGTTATAAATATCGCTTAATTTAAATCTAATTTAAAGATATAAAGGAGCGTATTTAAAATGAAGTTTTTGATACATCAATCATTAATTATCATTATTCAGATAATTTAATTAATACGAAATATGTCAATTAATAATGCTCTAGGAGATTAGCATGCAGTCTAATACGTATCTTAAATACGCAGATATTAAAGGTGAAGCGACAGCGGAACAATATAAGGATTTAATTACACTACTATCTGTAGATTGGAGTGTTGGTCGTGAAATTTCTTCTTACACGGGTACAGCAATGGACCGTGAAGCA (double strand) [VPA1027 (hcp2) promoter EMSA probe]”: binds.

— article PMC3744643
